The experiment concerns the target T1, CD30 antigen on the Hodgkin-derived cell line L540Cy (Homo sapiens (Human)., UniProt P28908).
T1 construct: also called CD30 receptor; intact native CD30; source: endogenous, on L540Cy cells
Nature of the experiment: flow cytometry on cells.

B1: recombinant anti-CD30 immunotoxin Ki-4(scFv)-ETA' (other)
VH: QVKLQESGTELAKPGAAVKMSCKASGYTFTDYWMHWVKQRPGQGLEWIGYINPNTAYTDYNQKFKDKATLTADKSSSTAYMQLRSLTSEDSAVYYCAKKTTQTTWGFPFWGQGTTVTVSS
VL: DIVLTQSPKSMAMSVGERVTLSCKASENVDSFVSWYQQKPGQSPKLLIYGASNRYTGVPDRFAGSGSGRDFTLTISSVQAEDLADYHCGQNYRYPLTFGAGTKLEIK
On to B1, for which the binding result was “binds”.

For the origin of these results see PMC2362362 (British Journal of Cancer, 1999).
